Measured values from several laboratories, pooled; numbers as filed in NIAID ChemDB.

Shared fields: tests in culture; agent: Mycobacterium tuberculosis

Neighbouring rows are from separate reports. Blank or dashed fields: not listed here. Inhibition is in % at the dose shown (toxicity tests: loss of growth or viability). MIC bound: limit read from a one-dose screen.

SMILES | tested at | measure | read by | strain | result
O=[N+]([O-])c1ccc(-n2nnc3ccccc32)nc1 | - | MIC bound | resazurin | H37Rv | >6.25 µg/mL
CC(CNCC12CC3CC(CC(C3)C1)C2)NC[C@@H]1CC[C@H]2C[C@@H]1C2(C)C | - | MIC | - | - | 50 µM
OCCCCCNCCNCCCCc1ccccc1 | - | MIC | - | - | 25 µM
Cc1ccc2c(c1)N(CC(O)CO)C(C)CC2 | - | MIC | - | H37Rv | 100 µg/mL
CO[C@H]1/C=C/O[C@@]2(C)Oc3c(C)c(O)c4c(O)c(c(/C=N/N5CCN(C/C=C/c6ccccc6)CC5)c(O)c4c3C2=O)NC(=O)/C(C)=C\C=C\[C@H](C)[C@H](O)[C@@H](C)[C@@H](O)[C@@H](C)[C@H](OC(C)=O)[C@@H]1C | - | MIC | - | 2230 (rifampin-resistant) | 0.2 µg/mL
Cc1[nH]ccc1C(=O)O | - | MIC | - | H37Rv | 50 µg/mL
CC(C)c1ccc2c(c1)CC[C@H]1[C@](C)(CNCCNCCF)CCC[C@]21C | - | MIC | - | - | 25 µM
Nc1ccccc1S(=O)(=O)NCCO | - | MIC | - | H37Rv | >100 µg/mL
OCCCCCNCCNCc1ccccc1Sc1ccccc1CO | - | MIC | - | - | 12.5 µM
CC(C)NCCCNC1=C(Cl)C(=O)c2ccccc2C1=O | - | MIC | BACTEC | H37Rv | 12.5 µg/mL
OCc1ccccc1Sc1ccccc1CNCCNCCC1=CCCCC1 | - | MIC | - | - | 12.5 µM
O=Cc1ccc(C=O)o1 | 12.5 µg/mL | inhibition | BACTEC | H37Rv | 54%
O=C1CCC(=O)N1Br | - | MIC | - | H37Rv | >100 µg/mL
FC(F)(F)c1ccc(CNCCNC23CC4CC(CC(C4)C2)C3)cc1 | - | MIC | - | - | >50 µM
Cn1c2ccccc2c2nnc(N/N=C/c3cccnc3)nc21 | 6.25 µg/mL | inhibition | resazurin | H37Rv | 72%
c1ccc(C(CNCCNCCN2CCOCC2)c2ccccc2)cc1 | - | MIC | - | - | 25 µM
C[C@@H](CO)C1=C(O)c2ccc3c(c2C(=O)C1=O)CCCC3(C)C | - | MIC bound | resazurin | H37Rv | >6.25 µg/mL
CC(CNCCc1ccccc1F)NC[C@@H]1CC[C@H]2C[C@@H]1C2(C)C | - | MIC | - | - | 25 µM
CC(=O)c1ccc2c(c1)C(=O)c1ccccc1-2 | - | MIC | - | H37Rv | >100 µg/mL
CO[C@H]1/C=C/O[C@@]2(C)Oc3c(C)c(O)c4c(=O)c(c5oc6cc(N7CCN(C(C)C)CC7)cc(=O)c6nc5c4c3=C2O)NC(=O)/C(C)=C\C=C\[C@H](C)[C@H](O)[C@@H](C)[C@@H](O)[C@@H](C)[C@H](OC(C)=O)[C@@H]1C | - | MIC | - | 2624 (rifampin-sensitive) | 0.006 µg/mL
C=CC1CN2CCC1CC2C(O)c1ccnc2ccc(OC)cc12.CC([Se][Se]C(C)C(=O)O)C(=O)O | 6.25 µg/mL | inhibition | resazurin | H37Rv | 5%
COc1ccc(OC)c(CCNCCNC2CCCCCCC2)c1 | - | MIC | - | - | 50 µM
CCOC([O-])=C([N+](=O)[O-])[N+](=O)[O-].[K+] | - | MIC | - | H37Rv | >100 µg/mL
CCN(CC)CCCN(C)Cc1c(-c2ccccc2)oc(-c2ccccc2)c1Cl | - | MIC bound | BACTEC | H37Rv | ≤12.5 µg/mL
c1ccc([C@H]2C[C@@H]2NCCNC2CCCCCCC2)cc1 | - | MIC | - | - | 25 µM
CC12C(=C(C#N)C(=N)N1c1ccc(Cl)c(Cl)c1)C=C(O)CC2SCCS(=O)(=O)[O-].[Na+] | 12.5 µg/mL | inhibition | BACTEC | H37Rv | 10%
CCC1Cc2ccccc2/C1=N\NC(N)=O | - | MIC | - | H37Rv | >100 µg/mL
C=C1C(=O)OC2CC3(C)OC3C3OC3C3=CC(OC3=O)C12 | - | MIC | BACTEC | H37Rv | ≥12.8 µg/mL
CCOC(=O)C1=C(C)NC(C)=C(C(=O)OCC)C1C | - | MIC | - | H37Rv | >100 µg/mL
CC1CCC(NCCNC2CCCCCCC2)CC1 | - | MIC | - | - | 50 µM
O=C(CN=C(CN(c1ccccc1)c1ccccc1)Oc1c(Cl)cc(Cl)cc1Cl)N1c2ccccc2Sc2ccccc21 | - | MIC bound | BACTEC | H37Rv | >12.5 µg/mL
O=Cc1ccc(O)cc1 | - | MIC | - | H37Rv | >100 µg/mL
COc1cccc2c1C(=O)c1c(O)c3c(c(O)c1C2=O)C[C@@](O)(/C(C)=N/NC(=O)c1ccc(Cl)cc1)C[C@H]3O[C@H]1C[C@H](N)[C@H](O)[C@H](C)O1 | - | MIC | - | KM-R | 12.5 µg/mL
Nc1ccc(Sc2ccc(Cl)cc2)c(N)c1 | - | MIC | - | H37Rv | 25 µg/mL
Cn1c(=O)c2c(ncn2CC[n+]2cccc(C(N)=O)c2)n(C)c1=O.[Cl-] | - | MIC | BACTEC | H37Rv | ≥12.5 µg/mL
CC(=O)Oc1cc(Nc2ccccc2)nn1C(C)=O | - | MIC | - | H37Rv | 100 µg/mL
CCOC(=O)Nn1c(C)c(C(N)=O)c(C(=O)OC)c1C | - | MIC bound | resazurin | H37Rv | >6.25 µg/mL
O=c1cc/c(=N/O)c(=O)/c1=N/O | - | MIC | - | H37Rv | >100 µg/mL
C[C@@H](NCCNC1CCCCCCC1)C1CCCCC1 | - | MIC | - | - | 50 µM
Cc1csc(/C=C/C(=C\Cc2scc(C)[n+]2C)c2scc(C)[n+]2C)[n+]1C | - | MIC | - | H37Rv | >100 µg/mL
CCOC(=O)C1Oc2ccc([N+](=O)[O-])cc2C1(C)O | - | MIC bound | BACTEC | H37Rv | >12.5 µg/mL
O=C(O)C1CCCCN1 | - | MIC | - | H37Rv | >100 µg/mL
CC(C)c1ccc2c(c1)CC[C@H]1[C@](C)(CNCCNCC(O)c3ccccc3)CCC[C@]21C | - | MIC | - | - | 12.5 µM
Cn1c2ccccc2c2nn3c(-c4ccccc4)nnc3nc21 | 6.25 µg/mL | inhibition | resazurin | H37Rv | 37%
NC(=Nc1ccccc1)Nc1ccccc1 | - | MIC | - | H37Rv | >100 µg/mL

Repeating the first 3 entries:

O=[N+]([O-])c1ccc(-n2nnc3ccccc32)nc1 ; measure: MIC bound ; read by: resazurin ; strain: H37Rv ; result: >6.25 µg/mL
CC(CNCC12CC3CC(CC(C3)C1)C2)NC[C@@H]1CC[C@H]2C[C@@H]1C2(C)C ; measure: MIC ; result: 50 µM
OCCCCCNCCNCCCCc1ccccc1 ; measure: MIC ; result: 25 µM